A mixed list of measured activities; the numbers were collected in NIAID ChemDB.

Shared fields: growth or infection tests; organism: Mycobacterium tuberculosis

Inhibition is in % at the dose shown (toxicity tests: loss of growth or viability). MIC bound comes from a single tested concentration. ECn: concentration that inhibits the pathogen or its effect by n%. Blank or dashed fields: not listed here. Lines come from different laboratories, so protocols vary.

smiles | strain | dose | method | endpoint | cells | value
O=C(CC1Sc2ccccc2NC1=O)NNc1c(Cl)cc(Cl)cc1Cl | H37Rv | 12.5 µg/mL | BACTEC | inhibition | - | -6%
CC(=O)NC(N)=S | H37Rv | - | - | MIC | - | >100 µg/mL
COc1ccccc1CCNCCNC12CC3CC(CC(C3)C1)C2 | - | - | - | MIC | - | 25 µM
Clc1ccc2c(c1)N(CCCN1CCCC13CCCCC3)c1ccccc1S2 | H37Rv | 12.5 µg/mL | BACTEC | inhibition | - | 92%
CCCCC(CC)CN1CN(CC(CC)CCCC)CC(C)(NCCNCc2ccc(OC)c(OC)c2)C1 | - | - | - | MIC | - | 50 µM
O=c1[nH]c(N2CCN(c3ccccc3)CC2)nc2cc3ccccc3cc12 | H37Rv | - | resazurin | MIC bound | - | >6.25 µg/mL
Oc1cc(NCc2ccccc2)cc(NCc2ccccc2)c1 | H37Rv | - | - | MIC | - | >100 µg/mL
Nc1cc2c(cc1Br)[nH]c(=O)c1ccccc12 | H37Rv | - | BACTEC | MIC | - | 12.5 µg/mL
C[C@@H](NCCNC[C@@H]1CC[C@H]2C[C@@H]1C2(C)C)C1CCCCC1 | - | - | - | MIC | - | 50 µM
CO[C@H]1/C=C/O[C@@]2(C)Oc3c(C)c(O)c4c(=O)c(c5oc6cc(N7CCN(CC(C)C)CC7)cc(=O)c6nc5c4c3=C2O)NC(=O)/C(C)=C\C=C\[C@H](C)[C@H](O)[C@@H](C)[C@@H](O)[C@@H](C)[C@H](OC(C)=O)[C@@H]1C | 2831 (rifampin-sensitive) | - | - | MIC | - | 0.012 µg/mL
O=C1NC2NC(=O)NC2N1 | H37Rv | - | - | MIC | - | >100 µg/mL
Cc1cc(C)c2[nH]c(=O)c(C)c(C)c2c1Br | H37Rv | 6.25 µg/mL | BACTEC | inhibition | - | 74%
COC(=O)CCCCC(=O)Nc1cccc(I)c1 | H37Rv | - | - | MIC | - | >100 µg/mL
CN1C(=O)C2(Nc3ccccc3N2)c2ccccc21 | H37Rv | - | BACTEC | MIC | - | ≥12.8 µg/mL
COC(=O)c1ccccc1C(=O)N(C)C | H37Rv | - | - | MIC | - | >100 µg/mL
O=c1[nH]c2cc3c(cc2n2cccc12)oc1ccccc13 | H37Rv | 12.5 µg/mL | BACTEC | inhibition | - | -10%
CC(C)=CCC/C(C)=C/CNCCNCc1cccc2ccccc12 | - | - | - | MIC | - | 50 µM
CCOC(=O)Nc1cc(NC(c2ccc(Cl)cc2)c2ccc(Cl)cc2)c2c(n1)NCN2 | H37Rv | 12.5 µg/mL | - | inhibition | - | 55%
c1cc(NCCNC23CC4CC(CC(C4)C2)C3)c2cccnc2c1 | - | - | - | MIC | - | 6.25 µM
CCCCCCCCCCCCCCCCCCOCC(COP(=O)(O)OCC[N+](C)(C)C)OC | H37Rv | - | BACTEC | MIC bound | - | >12.5 µg/mL
O=C(O)CNC(=O)CCl | H37Rv | - | - | MIC | - | >100 µg/mL
CO[C@H]1/C=C/O[C@@]2(C)Oc3c(C)c(O)c4c(=O)c(c5oc6cc(N7CCN(C(C)C)CC7)cc(=O)c6nc5c4c3=C2O)NC(=O)/C(C)=C\C=C\[C@H](C)[C@H](O)[C@@H](C)[C@@H](O)[C@@H](C)[C@H](OC(C)=O)[C@@H]1C | 2230 (rifampin-resistant) | - | - | MIC | - | 0.2 µg/mL
O=C(c1c(F)c(F)c(F)c(F)c1F)N1CCN(C(=O)c2c(F)c(F)c(F)c(F)c2F)C1=S | H37Rv | 12.5 µg/mL | BACTEC | inhibition | - | 90%
OB(O)c1cccc2ccccc12 | H37Rv | - | - | MIC | - | >100 µg/mL
CC(C)c1ccc2c(c1)CC[C@H]1[C@](C)(CNCCNC3CCCCC3)CCC[C@]21C | - | - | - | MIC | - | 25 µM
Cc1ccc(N(C)C(=O)CCCC(=O)O)c(C)c1 | H37Rv | - | - | MIC | - | >100 µg/mL
Cc1ccc(NC(=O)CC/C(CC(=O)C(C)(C)C)=N\NC(=O)C[n+]2ccccc2)cc1C.[Cl-] | H37Rv | - | BACTEC | MIC bound | - | >12.5 µg/mL
CCCCC(C)C(C)N(C)c1cc(NC(=O)OCC)nc(N)c1N | H37Rv | - | - | EC50 | - | >12.5 µg/mL
CCCCC(CC)CN1CN(CC(CC)CCCC)CC(C)(NCCNC2CCCc3ccccc32)C1 | - | - | - | MIC | - | 50 µM
Oc1cc(N=Nc2ccccc2)ccc1N=Nc1ccccc1 | H37Rv | - | - | MIC | - | >100 µg/mL
COc1ccc(-c2coc3cc(OC)c(OC)c(OC)c3c2=O)cc1 | H37Rv | - | BACTEC | MIC bound | - | >12.5 µg/mL
CCOC(=O)Nc1cc2c(c(N)n1)N=C(Cc1ccccc1)C(C)N2 | H37Rv | - | - | EC50 | - | <12.5 µg/mL
COc1cc(NCCCO)c2ncccc2c1.Cl | H37Rv | - | - | MIC | - | 50 µg/mL
COc1ccccc1CCNCCN1CC2(C)CC1CC(C)(C)C2 | - | - | - | MIC | - | 50 µM
O=C(SSC(=O)c1ccco1)c1ccco1 | H37Rv | - | - | MIC | - | >100 µg/mL
CCOC(=O)Nc1cc(NC/C(=N/O)c2ccc(Cl)cc2Cl)c([N+](=O)[O-])c(N)n1 | H37Rv | - | - | EC50 | - | <12.5 µg/mL
S=c1n(-c2ccc(Cl)cc2)c2nc3ccccc3nc(/c2=N\Nc2cc(Cl)ccc2Cl)n1-c1ccccn1 | H37Rv | - | BACTEC | MIC bound | - | >12.5 µg/mL
CC(=O)SCC(=O)Nc1ccccc1O | H37Rv | - | - | MIC | - | >100 µg/mL
FC(F)(F)c1ccc(CNCCNCCCCc2ccccc2)cc1 | - | - | - | MIC | - | 25 µM
CCOC(=O)Nc1cc2[nH]c(-c3cc(OC)c(OC)cc3OC)nc2c(N(CCc2ccccc2)Cc2ccccc2)n1 | H37Rv | - | - | EC50 | - | <12.5 µg/mL
CCOc1ccc2c(c1)n([O-])c1cc(Br)ccc1[n+]2=O | PAS-R | - | - | MIC | - | 3.1 µg/mL
Fc1ccc(CCNCCNCCCCc2ccccc2)cc1 | - | - | - | MIC | - | 25 µM
O=NN1CCOCC1 | H37Rv | - | - | MIC | - | >100 µg/mL
CC(=O)NC1NCCNC1=O | H37Rv | 12.5 µg/mL | BACTEC | inhibition | - | 9%
NC(CCCCNc1ccc([N+](=O)[O-])cc1[N+](=O)[O-])C(=O)O | H37Rv | - | - | MIC | - | >100 µg/mL
CC(C)c1ccc2c(c1)CC[C@H]1[C@](C)(CNCCN[C@H](CO)Cc3ccccc3)CCC[C@]21C | - | - | - | MIC | - | 25 µM
CCCCCCCCCCCNCCNCCc1ccc(O)c(OC)c1 | - | - | - | MIC | - | 12.5 µM
CCCCCCCCCCCNCCNCC(C)c1ccccc1 | - | - | - | MIC | - | 6.25 µM
CCCCN(C)CCNc1cc(C)nc(Nc2nc3ccc(Cl)cc3[nH]2)n1 | H37Rv | - | resazurin | MIC bound | - | <6.25 µg/mL
O=c1cc(CNc2ccccc2)c2ccccc2[nH]1 | H37Rv | - | - | MIC | - | >100 µg/mL
Oc1ccc([C@H]2Oc3c(c(O)cc4c3[C@H]3c5c(O)cc(O)cc5C[C@@](c5ccc(O)cc5)(O4)[C@H]3O)CC2O)cc1 | H37Rv | - | BACTEC | MIC bound | - | >12.5 µg/mL
CC(=O)Nc1cccc2cccnc12 | H37Rv | - | - | MIC | - | >100 µg/mL
NCC[C@H](O)C(=O)N[C@@H]1C[C@H](N)[C@@H](O[C@H]2O[C@H](CN)[C@@H](O)[C@H](O)[C@H]2O)[C@H](O)[C@H]1O[C@H]1O[C@H](CO)[C@@H](O)[C@H](N)[C@H]1O | TN2508 (001/16) | - | - | MIC | - | >256 µg/mL
CSC(=S)NN=C(C)C | H37Rv | - | BACTEC | MIC bound | - | ≤12.5 µg/mL
CN(C)c1ccccc1O | H37Rv | - | - | MIC | - | >100 µg/mL
COc1cccc2c1C(=O)c1c(O)c3c(c(O)c1C2=O)C[C@](O)(/C(C)=N/NS(C)(=O)=O)C[C@H]3OC1CC(N)C(O)C(C)O1.Cl | H37Rv | - | BACTEC | MIC | - | ≥12.5 µg/mL
CCO[Si](OCC)(OCC)c1ccc(N(C)C)cc1 | H37Rv | - | - | MIC | - | >100 µg/mL
CC(=O)c1cccc(NC(=O)C(=O)Nn2c(N)nnc2N)c1 | H37Rv | 12.5 µg/mL | BACTEC | inhibition | - | -11%
CC(=O)c1ccc2oc3cc(N)ccc3c2c1 | H37Rv | - | - | MIC | - | >100 µg/mL
NC(=S)NN=C1CCCCCCC1 | H37Rv | - | BACTEC | MIC | VERO | 6.25 µg/mL
CC1=CC(=O)C=C(C)C1=O | H37Rv | - | - | MIC | - | >100 µg/mL